A mixed list of measured activities; the numbers were collected in NIAID ChemDB.

Common to all: tests in culture; organism: Cryptococcus neoformans

MIC50, MIC90 and the like: level of inhibition, or share of isolates inhibited.

structure	measure	strain or isolate	method	value
C[C@@H](c1nc(-c2ccc(C#N)cc2)cs1)[C@](O)(Cn1cnnc1)c1ccc(F)cc1F	MIC	A25838	-	0.06 µg/mL
Oc1cccc(C=Nc2ccccc2O)c1	MIC	ATCC 24067	broth dilution	2.8 µg/mL
Cn1nc(Cc2ccc(Cl)cc2)c2ccccc2c1=O	MIC80	ATCC 32264	broth dilution	7.8 µg/mL
Cc1nc(NCCCCNc2ccnc3cc(Cl)ccc23)nc(-c2ccccc2)c1C(=O)OC(C)C	MIC99	WP	-	5.7 µg/mL
C[C@@H](n1cnc2cc(Cl)ccc2c1=O)[C@](O)(Cn1cncn1)c1ccc(F)cc1F	MIC	Isolate 109.97	-	0.0098 µg/mL
CCC(C)n1ncn(-c2ccc(N3CCN(c4ccc(OC[C@H]5CO[C@](Cn6cncn6)(c6ccc(Cl)cc6Cl)O5)cc4)CC3)cc2)c1=O	MIC	Clinical isolate (IM 972751)	broth dilution	<0.015 µg/mL
COc1ccc(/C=C2\CSc3ccc(OC)cc3C2=O)cc1	MIC	Farwania	-	12.5 µg/mL
CN[C@H]1CC[C@@H](c2ccc(Cl)c(Cl)c2)c2ccccc21	MIC90	98BC1-86	broth dilution	5 µg/mL
Oc1ccccc1N=Cc1ccc2c(c1)OCO2	MIC	5396	broth dilution	5.7 µg/mL
O=C1/C(=C/c2ccc(Cl)cc2)COc2ccccc21	MIC	25	-	6 µg/mL
CCC(C)CC(C)CCCCCCCCC(=O)N[C@H]1C[C@@H](O)[C@H](NCCN)NC(=O)[C@@H]2[C@@H](O)CCN2C(=O)[C@H]([C@H](O)CCN)NC(=O)[C@H]([C@H](O)[C@@H](O)c2ccc(O)cc2)NC(=O)[C@@H]2C[C@@H](O)CN2C(=O)[C@H]([C@@H](C)O)NC1=O	MIC	ATCC90112	broth dilution	16 µg/mL
O=C1/C(=C/c2ccc(Cl)cc2)CSc2ccccc21	MIC	25	-	3 µg/mL
Oc1ccccc1N=Cc1cccc(O)c1O	MIC	ATCC 24067	broth dilution	4 µg/mL
Cc1ccc(/C=C2\COc3ccccc3C2=O)cc1	MIC	25	-	12.5 µg/mL
Cc1nc(NCCCCNc2ccnc3cc(Cl)ccc23)nc(-c2ccccc2[N+](=O)[O-])c1C(=O)OC(C)C	MIC99	ATCC 62066	-	8 µg/mL
COc1ccc(/C=C2\CSc3ccc(Cl)cc3C2=O)cc1	MIC	25	-	6 µg/mL
CCOC(=O)c1cnc(NCCCCNc2ccnc3cc(Cl)ccc23)nc1C	MIC99	WP	-	5.7 µg/mL
COc1ccc2c(c1)C(=O)/C(=C/c1ccc(OC)c(OC)c1)CO2	MIC	93/V	-	1.5 µg/mL
CC(C(O)(Cn1cncn1)c1ccc(F)cc1F)S(C)(=O)=O	EC50	B4500 (AZOLE-S)	-	0.4 µM
Oc1ccccc1N=Cc1ccc(F)cc1	MIC	WP	broth dilution	8 µg/mL
O=C1/C(=C/c2ccccc2O)COc2ccccc21	MIC	25	-	12.5 µg/mL

Repeating the final 2 entries:

{"structure": "Oc1ccccc1N=Cc1ccc(F)cc1", "measure": "MIC", "strain or isolate": "WP", "method": "broth dilution", "value": "8 µg/mL"}
{"structure": "O=C1/C(=C/c2ccccc2O)COc2ccccc21", "measure": "MIC", "strain or isolate": "25", "value": "12.5 µg/mL"}

Blank or dashed fields: not listed here. Rows are shuffled and stem from different studies. ECn is the concentration giving n% inhibition of infection, replication or growth.